For one substance, Km results are on record in paper PMC6759604 (Frontiers in Microbiology, 2019).

The data set relates to Nc1ncnc2c1ncn2[C@@H]1O[C@H](COP(=O)(O)OP(=O)(O)OP(=O)(O)O)[C@@H](O)[C@H]1O. Nature of the data set: purified protein. Conditions: Mg2+ 4 mM, pH 8.0, room temperature, labelled compound as trace.

For “Vp HqsK (VP1876 HK; H-NOX-associated quorum sensing kinase) (Vibrio parahaemolyticus RIMD 2210633; D499A)”, the Michaelis constant (Km) (in general, the substrate concentration at which the rate is half of its maximum) was found to be 35 µM.
